Several values for one entry are separate records, joined by “and”; a condition that tells them apart may be missing. Identical values can stand only once.
Tested on: dengue type 2 virus subgenomic replicon (BHK-pD2hRucPac)
Assay: Antiviral (replicon) assay, Renilla luciferase
Type: cell-based
Conditions: for Replicon Assay_TI: Table 2-1; for Replicon Therapeutic Index (TI): CC50/EC50

| Structure (SMILES) | Replicon Assay_TI | Replicon Therapeutic Index (TI) | Replicon Therapeutic Index (TI) (listed as BG323) |
| --- | --- | --- | --- |
| COc1ccccc1C=C1SC(=S)N(C(Cc2ccccc2)C(=O)O)C1=O (racemic) [BG101] | 1.1 | – | – |
| O=C(O)C(Cc1ccccc1)N1C(=O)C(=Cc2ccccc2Cl)SC1=S (racemic) [BG135] | 1.12 | – | – |
| CC(C)(C)c1ccc(CC2SC(=S)N(CCC(=O)O)C2=O)cc1 (racemic) [BG296] | 0.6281 | – | – |
| O=C(CN1C(=O)/C(=C/c2ccccc2Cl)SC1=S)Nc1ccccc1C(=O)O [BG100] | 1.34 | – | – |
| C=CCOc1ccc(Cl)cc1/C=C1\SC(=S)NC1=O [BG114] | 1.16 | – | – |
| O=C(CN1C(=O)C(=Cc2ccccc2Cl)SC1=S)Nc1ccc(C(=O)O)cc1 [BG119] | 1.36 | – | – |
| O=C(CCN1C(=O)C(=Cc2ccc(Cl)cc2)SC1=S)Nc1ccccc1C(=O)O [BG120] | 1.49 | – | – |
| O=C(CCN1C(=O)C(=Cc2ccc(Cl)cc2)SC1=S)Nc1cccc(C(=O)O)c1 [BG121] | 1.2 | – | – |
| O=C(CCN1C(=O)C(=Cc2ccc(Cl)cc2)SC1=S)Nc1ccc(C(=O)O)cc1 [BG122] | 1.41 | – | – |
| O=C(CN1C(=O)C(=Cc2ccccc2Cl)SC1=S)Nc1cccc(C(=O)O)c1 [BG123] | 1.43 | – | – |
| O=C(CCCN1C(=O)/C(=C/c2ccc(F)cc2)SC1=S)Nc1cccc(C(=O)O)c1 [BG124] | 0.89 | – | – |
| CCN(CC)c1ccc(N2C(=O)/C(=C/c3ccc(C(=O)O)cc3)SC2=S)cc1 [BG125] | 0.6 | – | – |
| CCOc1ccc(N2C(=O)C(=Cc3ccccc3C(=O)O)SC2=S)cc1 [BG126] | 1.02 | – | – |
| O=C1NC(=S)SC1=Cc1ccccc1OS(=O)(=O)c1ccc([N+](=O)[O-])cc1 [BG127] | 0.7 | – | – |
| Cc1cccc(N2C(=O)/C(=C/c3ccc(C(=O)O)cc3)SC2=S)c1C [BG128] | 1.02 | – | – |
| O=C(O)c1ccccc1/C=C1\SC(=S)N(c2cccc(C(F)(F)F)c2)C1=O [BG129] | 0.75 | – | – |
| Cc1ccc(N2C(=O)/C(=C/c3ccccc3C(=O)O)SC2=S)c(C)c1 [BG130] | 0.95 | – | – |
| O=C(CN1C(=O)/C(=C/c2ccccc2F)SC1=S)Nc1cccc(C(=O)O)c1 [BG131] | 1.56 | – | – |
| O=C(CN1C(=O)/C(=C/c2ccccc2F)SC1=S)Nc1ccccc1C(=O)O [BG132] | 0.82 | – | – |
| CC(C(=O)O)N1C(=O)C(=Cc2ccc(Cl)cc2Cl)SC1=S (stereo not drawn) [BG133] | 0.87 | – | – |
| CC(C)C(C(=O)O)N1C(=O)/C(=C/c2ccccc2Cl)SC1=S (stereo not drawn) [BG134] | 1.1 | – | – |
| Cc1cccc(/C=C2\SC(=S)N(CN3CCCCC3)C2=O)c1 [BG136] | 1.21 | – | – |
| CC(=C1SC(=S)NC1=O)c1ccc(C)cc1 [BG137] | 1.21 | – | – |
| O=C(O)C(Cc1ccccc1)N1C(=O)C(=CC=Cc2ccccc2)SC1=S (stereo not drawn) [BG138] | 1.03 | – | – |
| O=C(O)CCN1C(=O)C(=Cc2ccc(-c3ccccc3[N+](=O)[O-])o2)SC1=S [BG139] | 1.11 | – | – |

| Structure (SMILES) | Replicon Assay_TI | Replicon Therapeutic Index (TI) | Replicon Therapeutic Index (TI) (listed as BG323) |
| --- | --- | --- | --- |
| COc1ccc(N2C(=O)/C(=C/c3cc([N+](=O)[O-])cc(OC)c3O)SC2=S)cc1 [BG140] | 1.74 | – | – |
| COc1cc(C=C2SC(=S)NC2=O)ccc1OS(=O)(=O)c1ccccc1[N+](=O)[O-] [BG141] | 1.14 | – | – |
| O=C(CN1C(=O)S/C(=C\c2ccccc2F)C1=O)Nc1ccccc1C(=O)O [BG142] | 1.43 | – | – |
| O=C1NC(=O)C(=Cc2ccc(Br)cc2)S1 [BG143] | 1.22 | – | – |
| COc1cc(/C=C2\SC(=O)N(Cc3ccc(F)cc3)C2=O)c(Br)cc1OCC(=O)O [BG163] | 1.54 | – | – |
| CC(C)N1C(=O)SC(=Cc2ccccc2OCc2ccc(C(=O)O)cc2)C1=O [BG166] | 1.2 | – | – |
| COc1ccc2nc(N3CCCCC3)c(C=C3SC(=S)NC3=O)cc2c1 [BG168] | 1.17 | – | – |
| CCOc1cc(/C=C2\SC(=S)NC2=O)ccc1OS(=O)(=O)c1ccccc1[N+](=O)[O-] [BG169] | 1.15 | – | – |
| Cc1cc(C)cc(-n2c(C)cc(/C=C3\SC(=O)NC3=O)c2C)c1 [BG172] | 1.28 | – | – |
| CN1C(=O)S/C(=C\c2ccc(-c3ccc(C(=O)O)c(Cl)c3)o2)C1=O [BG175] | 1.39 | – | – |
| O=C(O)CCN1C(=O)/C(=C/c2ccc(-c3ccc(Cl)cc3Cl)o2)SC1=S [BG177] | 1 and 1.2 | – | – |
| CC(C)(C)c1cc(C=C2SC(=S)NC2=O)cc(C(C)(C)C)c1O [BG179] | 1.35 | – | – |
| CC(C)c1ccc(/C=C2\SC(=S)N(CC(=O)O)C2=O)cc1 [BG182] | 1.26 | – | – |
| CC(C)(C)c1ccc(/C=C2\SC(=S)N(CCC(=O)O)C2=O)cc1 [BG184] | 1.3 | – | – |
| O=C(O)CCN1C(=O)/C(=C/c2ccc(-c3cccc(Cl)c3)o2)SC1=S [BG188] | 1 | – | – |
| CCc1ccc(C=C2SC(=S)N(CCC(=O)Nc3ccccc3C(=O)O)C2=O)cc1 [BG274] | 1 | – | – |
| O=C(CCN1C(=O)/C(=C/c2ccccc2Cl)SC1=S)Nc1ccccc1C(=O)O [BG289] | 0.9 | – | – |
| O=C(CCN1C(=O)/C(=C/c2cccc(Br)c2)SC1=S)Nc1ccccc1C(=O)O [BG291] | 0.9 | – | – |
| CC(C)(C)c1ccc(/C=C2\SC(=S)N(CCC(=O)O)C2=O)cc1 [BG295] | 3.8 | – | – |
| CC(C)(C)c1ccc(C=C2SC(=S)N(CCC(=O)NS(C)(=O)=O)C2=O)cc1 [BG297] | 1.1 | – | – |
| COc1c(I)cc(I)cc1/C=C1\SC(=S)N(CC(=O)O)C1=O [BG308] | 2.8 | – | – |
| O=C1NC(=S)SC1=Cc1cccc(Cl)c1Cl [BG333] | 1.25 | – | – |
| CC(C)(C)c1ccc(/C=C2/SC(=S)N(CCC(=O)O)C2=O)cc1 [BG-323, (E)-3-(5-(4-tert-butylbenzylidene)-4-oxo-2-thioxo-1,3-thiazolidin-3-yl)propanoic acid] | 6.0 | 12 and 6 | 6.0 |
| O=C(O)CCN1C(=O)/C(=C/c2cccc(Cl)c2Cl)SC1=S [BG-324] | 1.43 | 1.4 | – |
| O=C(O)CCN1C(=O)/C(=C/c2ccc(Cl)cc2Cl)SC1=S [BG-330] | 1.25 | 1.4 | – |
